Source: patent US20220089698A1, “ANTIBODIES THAT TARGET HIV GP120 AND METHODS OF USE” (published 2022)
Residue numbers refer to the chain shown, from its start.

B1: 1.1.138-1 (antibody, human IgG1, kappa)
heavy: QVQLLQSGAAVTKPGASVRVSCEASGYNIRDYFIHWWRQAPGQGLQWVGWINPKTGQPNNPRQFQGRVSLTRHASWDFDTFSFYMDLKALRSDDTAVYFCARQRSDYWDFDVWGSGTQVTVSSASTKGPSVFPLAPSSKSTSGGTAALGCLVKDYFPEPVTVSWNSGALTSGVHTFPAVLQSSGLYSLSSVVTVPSSSLGTQTYICNVNHKPSNTKVDKKVEPKSCDKTHTCPPCPAPELLAGPDVFLFPPKPKDTLMISRTPEVTCVVVDVSHEDPEVKFNWYVDGVEVHNAKTKPREEQYNSTYRVVSVLTVLHQDWLNGKEYKCKVSNKALPLPEEKTISKAKGQPREPQVYTLPPSREEMTKNQVSLTCLVKGFYPSDIAVEWESNGQPENNYKTTPPVLDSDGSFFLYSKLTVDKSRWQQGNVFSCSVLHEALHSHYTQKSLSLSPGK
light: not shown
B2: 1.52.1-1 (antibody, human IgG1, kappa)
heavy: B1 heavy with W76F
light: not shown

What was measured:
Assay in all cases: cell-based or functional assay
[1] = target: HIV envelope glycoprotein gp120 of virus VS003 (HIV-1)
[2] = target: HIV envelope glycoprotein gp120 of virus VS046 (HIV-1)
[3] = target: HIV envelope glycoprotein gp120 of virus VS001 (HIV-1)
[4] = target: HIV envelope glycoprotein gp120 of virus VS026 (HIV-1)
[5] = target: HIV envelope glycoprotein gp120 of virus VS052 (HIV-1)
[6] = target: HIV envelope glycoprotein gp120 of virus US657 (HIV-1)
[7] = target: HIV envelope glycoprotein gp120 of virus VS043 (HIV-1)
[8] = target: HIV envelope glycoprotein gp120 of virus VS004 (HIV-1)
[9] = target: HIV envelope glycoprotein gp120 of virus VS003 (HIV-1); remark: listed apart in the source
[10] = target: HIV envelope glycoprotein gp120 of virus VS046 (HIV-1); remark: listed apart in the source
[11] = target: HIV envelope glycoprotein gp120 of virus VS001 (HIV-1); remark: listed apart in the source
[12] = target: HIV envelope glycoprotein gp120 of virus VS026 (HIV-1); remark: listed apart in the source
[13] = target: HIV envelope glycoprotein gp120 of virus VS052 (HIV-1); remark: listed apart in the source
[14] = target: HIV envelope glycoprotein gp120 of virus US657 (HIV-1); remark: listed apart in the source
[15] = target: HIV envelope glycoprotein gp120 of virus VS043 (HIV-1); remark: listed apart in the source
[16] = target: HIV envelope glycoprotein gp120 of virus VS004 (HIV-1); remark: listed apart in the source
[17] = target: HIV envelope glycoprotein gp120 of virus VS002 (HIV-1)
[18] = target: HIV envelope glycoprotein gp120 of virus VS011 (HIV-1)
[19] = target: HIV envelope glycoprotein gp120 of virus VS017 (HIV-1)
[20] = target: HIV envelope glycoprotein gp120 of virus VS030 (HIV-1)
[21] = target: HIV envelope glycoprotein gp120 of virus VS032 (HIV-1)
[22] = target: HIV envelope glycoprotein gp120 of virus VS033 (HIV-1)
[23] = target: HIV envelope glycoprotein gp120 of virus VS034 (HIV-1)
[24] = target: HIV envelope glycoprotein gp120 of virus VS038 (HIV-1)
[25] = target: HIV envelope glycoprotein gp120 of virus VS039 (HIV-1)
[26] = target: HIV envelope glycoprotein gp120 of virus VS042 (HIV-1)
[27] = target: HIV envelope glycoprotein gp120 of virus VS044 (HIV-1)
[28] = target: HIV envelope glycoprotein gp120 of virus VS053 (HIV-1)

Row | Binder | HIV neutralization IC50 [1] [µg/mL] | HIV neutralization IC50 [2] [µg/mL] | HIV neutralization IC50 [3] [µg/mL] | HIV neutralization IC50 [4] [µg/mL] | HIV neutralization IC50 [5] [µg/mL] | HIV neutralization IC50 [6] [µg/mL] | HIV neutralization IC50 [7] [µg/mL] | HIV neutralization IC50 [8] [µg/mL] | Avg. IC50 (HIV neutralization) [9] [µg/mL] | Avg. IC50 (HIV neutralization) [10] [µg/mL] | Avg. IC50 (HIV neutralization) [11] [µg/mL] | Avg. IC50 (HIV neutralization) [12] [µg/mL] | Avg. IC50 (HIV neutralization) [13] [µg/mL] | Avg. IC50 (HIV neutralization) [14] [µg/mL] | Avg. IC50 (HIV neutralization) [15] [µg/mL] | Avg. IC50 (HIV neutralization) [16] [µg/mL] | Avg. IC50 (HIV neutralization) [17] [µg/mL] | Avg. IC50 (HIV neutralization) [18] [µg/mL] | Avg. IC50 (HIV neutralization) [19] [µg/mL] | Avg. IC50 (HIV neutralization) [20] [µg/mL] | also measured
1 | B1 | 0.06 | 0.04 | 0.18 | 0.35 | 0.46 | 0.54 | 1.41 | 39.2 | 0.06 | 0.04 | 0.18 | 0.35 | 0.45 | 0.55 | 1.41 | 39.2 | 0.03 | 0.25 | 2.02 | 2.81 | Avg. IC50 (HIV neutralization) [21]: 0.25 µg/mL; Avg. IC50 (HIV neutralization) [22]: 0.19 µg/mL; Avg. IC50 (HIV neutralization) [23]: 0.45 µg/mL; Avg. IC50 (HIV neutralization) [24]: 0.12 µg/mL; Avg. IC50 (HIV neutralization) [25]: 0.07 µg/mL; Avg. IC50 (HIV neutralization) [26]: 1.73 µg/mL; Avg. IC50 (HIV neutralization) [27]: 0.36 µg/mL; Avg. IC50 (HIV neutralization) [28]: 1.52 µg/mL
2 | B2 | 0.05 | 0.06 | 0.21 | 0.48 | 0.54 | 0.69 | 1.39 | 9.9 | 0.04 | 0.05 | 0.21 | 0.48 | 0.54 | 0.44 | 1.39 | 9.9 | 0.05 | 0.33 | 3.01 | 4.86 | Avg. IC50 (HIV neutralization) [21]: 0.27 µg/mL; Avg. IC50 (HIV neutralization) [22]: 0.27 µg/mL; Avg. IC50 (HIV neutralization) [23]: 0.28 µg/mL; Avg. IC50 (HIV neutralization) [24]: 0.4 µg/mL; Avg. IC50 (HIV neutralization) [25]: 0.17 µg/mL; Avg. IC50 (HIV neutralization) [26]: 4.54 µg/mL; Avg. IC50 (HIV neutralization) [27]: 0.16 µg/mL; Avg. IC50 (HIV neutralization) [28]: 1.07 µg/mL
